Pooled drug test results. Numbers come from NIAID ChemDB, via PubChem.

Shared fields: tests in culture; species: Hepatitis C virus; measure: EC50

ECn: concentration that inhibits the pathogen or its effect by n%.

CC1(C)CC(=O)C2=C(C1)Nc1c(O)cccc1N(C(=O)CCC(=O)NS(=O)(=O)c1ccccc1)C2c1ccc(OCc2ccccc2)cc1Cl ; method: luciferase / reporter gene / replicon ; strain: 1b ; result: >100 µM
CC1CCC(C(=O)N(c2cc(-c3ccc(NC(=O)c4cscn4)cc3)sc2C(=O)[O-])C(C)C)CC1.[NH3+]CCO ; method: replicon ; strain: 1a ; result: <0.5 µM
CC(C)C(=O)N1c2cccc(O)c2NC2=C(C(=O)CC(C)(C)C2)C1c1ccc(NCc2ccccc2)nc1Cl ; method: luciferase / reporter gene / replicon ; strain: 1b ; result: 15.04 µM
COc1cccc(CC(=O)N/N=C/c2ccccc2OS(=O)(=O)c2ccc(OC(C)C)cc2)c1 ; method: replicon ; cells: Huh7 ; result: <5 µM
Cc1ncsc1C(=O)Nc1ccc(-c2cc(N(C(=O)C3CCC(C)CC3)C(C)C)c(C(=O)O)s2)cc1 ; method: replicon ; strain: 1b ; result: <0.5 µM
O=C(O)c1c(-c2ccc[nH]c2=O)c2c3ncccc3ccc2n1Cc1ccccc1F ; method: replicon ; result: 1–10 µM
CCCCOc1ccc(N(C(N)=O)c2nc(-c3ccc(O)c(C(N)=O)c3)cs2)cc1C(F)(F)F ; result: <1 µM
CCOc1nc(NCc2ncco2)nc2ccc(-c3ccc(F)cc3)nc12 ; method: replicon ; result: <0.1 µM
NC(=O)COc1ccc2c(c1)S(=O)(=O)N=C(c1c(O)c3cc(F)ccc3n(CCC3CC3)c1=O)N2 ; method: replicon ; strain: 1b 5903 ; result: 0.049 µM
CCOc1nc(NCc2ccc(S(N)(=O)=O)cc2)nc2ccc(-c3ccc(NC(=O)N4CCCC4)cc3)nc12 ; method: replicon ; result: <0.1 µM
CNC(=O)c1c(-c2ccc(F)cc2)oc2cc(CO)c(OC(C)C)cc12 ; method: replicon ; cells: Huh7 ; result: <10 µM
CC1(C)CC(=O)C2=C(C1)Nc1c(O)cccc1N(C(=O)CCC(=O)N1CCC3(CC1)OCCO3)C2c1ccc(OCc2ccccc2)cc1Cl ; method: luciferase / reporter gene / replicon ; strain: 1b ; result: 7.15 µM
CNC(=O)c1c(-c2ccc(F)cc2)oc2cc(N(C)S(C)(=O)=O)c(OCC(=O)O)cc12 ; method: replicon ; cells: Huh7 ; result: <30 µM
COc1cccc(CC(=O)N/N=C/c2ccccc2OS(=O)(=O)c2cc(OC)ccc2OC)c1 ; method: replicon ; cells: Huh7 ; result: <5 µM
CNC(=O)c1c(-c2ccc(F)cc2)oc2cc(N3CCOCC3)c(O)cc12 ; method: replicon ; cells: Huh7 ; result: <10 µM
CCOc1nc(N[C@H](C)c2ccccc2)nc2ccc(-c3ccc(F)cc3)nc12 ; method: replicon ; result: <0.1 µM
CC1(C)COc2c1ccc1c2c(-c2ccc[nH]c2=O)c(C(=O)O)n1Cc1cc2ccccc2nc1Cl ; method: replicon ; result: <0.5 µM
NS(=O)(=O)c1ccc(CNc2nc(NCC(F)(F)F)c3nc(-c4ccnnc4)ccc3n2)cc1 ; method: replicon ; result: <0.1 µM
CCCCCOc1ccc(N(C(=O)C(=O)OC)c2nc(-c3ccc(F)cc3)cs2)cc1C(F)(F)F ; result: <1 µM
CCOc1nc(NCc2ccc(F)cc2)nc2ccc(-c3ccc(F)nc3)nc12 ; method: replicon ; result: <0.1 µM
CN(c1ccccc1/C=N/NC(=O)Cc1cccc(Br)c1)S(=O)(=O)c1ccc(C(F)(F)F)cc1 ; method: replicon ; cells: Huh7 ; result: <5 µM
COC(=O)N[C@H](C(=O)N1CCCC1c1ncc(-c2ccc(-c3ccc(-c4cnc([C@@H]5CC(C)CN5C(=O)[C@@H](NC(=O)CO)C(C)C)[nH]4)cc3)cc2)[nH]1)C(C)C ; mutations: P32L ; method: luciferase ; cells: ET ; strain: 1b ; result: 0.0000055 µM
Cc1ccc(Oc2ccccc2/C=N/NC(=O)Cc2ccccc2)cc1 ; method: replicon ; cells: Huh7 ; result: >50 µM
NC(=O)c1cnc(F)c(Cn2c(C(=O)O)c(-c3ccc[nH]c3=O)c3c4c(c(F)cc32)CCO4)c1 ; method: replicon ; result: <0.5 µM
O=C(Cc1c(F)c(F)c(F)c(F)c1F)N/N=C/c1ccccc1OS(=O)(=O)c1ccc(C(F)(F)F)cc1 ; method: replicon ; cells: Huh7 ; result: >50 µM
Cc1cc(C(=O)Nc2ccc(-c3cc(N(C(=O)C4CCC(C)CC4)C(C)C)c(C(=O)O)s3)cc2)n[nH]1 ; method: replicon ; strain: 1a ; result: <0.5 µM
CNC(=O)c1c(-c2ccc(F)cc2)oc2cc(N(C)S(C)(=O)=O)c(OCCN3CCOCC3)cc12 ; method: replicon ; cells: Huh7 ; result: <1 µM
O=S(=O)(Cc1ccccc1)N/N=C/c1ccccc1NS(=O)(=O)c1ccc(C(F)(F)F)cc1 ; method: replicon ; cells: Huh7 ; result: 5–50 µM
CC(=O)N1c2cccc(O)c2NC2=C(C(=O)CC(C)(C)C2)C1c1cc(Cl)cc(Cl)c1 ; method: luciferase / reporter gene / replicon ; strain: 1b ; result: 3.52 µM
O=C(NS(=O)(=O)C1CC1)c1c(-c2ccc[nH]c2=O)c2c3occc3ccc2n1Cc1cc(F)ccc1F ; method: replicon ; result: <0.5 µM
CNC(=O)CNC(=O)N1c2cccc(O)c2NC2=C(C(=O)CC(C)(C)C2)C1c1ccc(OCc2ccccc2)cc1Cl ; method: luciferase / reporter gene / replicon ; strain: 1b ; result: >100 µM
CC(C)(C)OC(=O)n1nc(N)c2cc(Cn3c(C(=O)O)c(-c4ccc[nH]c4=O)c4c5occc5c(F)cc43)ccc21 ; method: replicon ; result: <0.5 µM
CCOc1nc(N)nc2ccc(-c3cccc(NS(=O)(=O)c4c(C)noc4C)c3)nc12 ; method: replicon ; cells: Huh7 ; result: 0.3–1 µM
COc1cccc(CC(=O)N/N=C/c2ccc(C)cc2OS(=O)(=O)c2ccc(C(F)(F)F)cc2)c1 ; method: replicon ; cells: Huh7 ; result: <5 µM
CNC(=O)c1c(-c2ccc(F)cc2)oc2cc(N(C)S(C)(=O)=O)c(OCC(=O)Nc3nc(C)c(C)s3)cc12 ; method: replicon ; cells: Huh7 ; result: <1 µM
COc1cccc(CC(=O)N/N=C/c2c(OS(=O)(=O)c3ccc(C)cc3)ccc3ccccc23)c1 ; method: replicon ; cells: Huh7 ; result: 5–50 µM
NS(=O)(=O)c1ccc(CNc2nc(NCC(F)(F)F)c3nc(-c4cn[nH]c4)ccc3n2)cc1 ; method: replicon ; result: <0.1 µM
O=C(O)c1c(-c2ccc[nH]c2=O)c2c3c(ccc2n1Cc1cc(F)ccc1F)OC(F)(F)O3 ; method: replicon ; result: >1.5 µM
COCCN(C(=O)C1CCC(C)CC1)c1cc(-c2ccc(NC(=O)c3cscn3)cc2)sc1C(=O)O ; method: replicon ; strain: 1a ; result: <0.5 µM
CNC(=O)c1c(-c2occc2C)oc2ccc(OC(C)C)cc12 ; method: replicon ; cells: Huh7 ; result: <30 µM
Cc1ccc(Cn2c(C(=O)NS(C)(=O)=O)c(-c3ccc[nH]c3=O)c3c4occc4ccc32)c(C)c1 ; method: replicon ; result: <0.5 µM
CC(C)Nc1nc(Nc2ccccc2)nc2ccc(-c3ccc(F)cc3)nc12 ; method: replicon ; result: 0.25–2 µM
Cc1nocc1C(=O)Nc1ccc(-c2cc(N(C(=O)C3CCC(C)CC3)C(C)C)c(C(=O)O)s2)cc1 ; method: replicon ; strain: 1b ; result: <0.5 µM
C/C=N/N(c1ccc(OCCCCCCCC)cc1)c1nc(-c2cccnc2)cs1 ; result: <1 µM
CCNc1cc2oc(-c3ccc(F)cc3)c(C(=O)NC)c2cc1OCCCOCC ; method: replicon ; cells: Huh7 ; result: <1 µM
Fc1ccc(-c2ccc3nc(NCc4nnco4)nc(NCC(F)(F)F)c3n2)cc1 ; method: replicon ; result: <0.1 µM
C/C=N/N(c1ccc(OCCCCCCCC)c(C(F)(F)F)c1)c1nc(-c2cccnc2)cs1 ; result: <1 µM
COc1cccc(CC(=O)N/N=C/c2ccccc2OCc2ccc(C)cc2)c1 ; method: replicon ; cells: Huh7 ; result: >50 µM

Lines come from different laboratories, so protocols vary. a–b is a range or a potency band.